# Replication capacity of HIV-1 mutants, non-coding ends

Source: Al-Mawsawi et al. 2014 (doi:10.1186/s12977-014-0124-6), supplementary data.

Positions lie in the non-coding 5' end or the 3' LTR of the genome. Changes in the 5' U3 are not copied into viral RNA and those in the 3' R are mostly lost on reverse transcription, so a low index there need not show harm (not discussed in the paper).

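Seven fragments of pNL4-3 were mutated by error-prone PCR, and each virus pool was passaged in CEM T cells. The RC index is the frequency of a change after passage round 2 divided by its frequency in the plasmid library.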

RC index: lower means poorer replication; rough cut-offs are 0.1 (lethal) and 0.2 (tolerated).
An index over 1, which the authors read as above wild type, was rare (1.9% of all changes in the genome).

| # | base | region | replication capacity index |
|---|---|---|---|
| 1 | C150G | 5' U3 | 0.0602 |
| 2 | G162T | 5' U3 | 0.0938 |
| 3 | A163T | 5' U3 | 0.0559 |
| 4 | G171T | 5' U3 | 0.353 |
| 5 | A173T | 5' U3 | 0.0500 |
| 6 | G174T | 5' U3 | 0.0750 |
| 7 | A175T | 5' U3 | 0.199 |
| 8 | C179A | 5' U3 | 0.112 |
| 9 | C194A | 5' U3 | 0.105 |
| 10 | A220G | 5' U3 | 0.0702 |
| 11 | A223T | 5' U3 | 0.0502 |
| 12 | G246A | 5' U3 | 0.0726 |
| 13 | A268T | 5' U3 | 0.867 |
| 14 | A270T | 5' U3 | 0.314 |
| 15 | C273A | 5' U3 | 0.122 |
| 16 | G279T | 5' U3 | 0.0860 |
| 17 | A281T | 5' U3 | 0.102 |
| 18 | T282C | 5' U3 | 0.140 |
| 19 | T284C | 5' U3 | 0.123 |
| 20 | A307T | 5' U3 | 0.101 |
| 21 | C309T | 5' U3 | 0.355 |
| 22 | C310A | 5' U3 | 0.174 |
| 23 | A323T | 5' U3 | 0.335 |
| 24 | C329G | 5' U3 | 0.511 |
| 25 | C333T | 5' U3 | 0.139 |
| 26 | A346G | 5' U3 | 0.153 |
| 27 | G352T | 5' U3 | 0.344 |
| 28 | A353G | 5' U3 | 0.416 |
| 29 | C358T | 5' U3 | 0.195 |
| 30 | G364T | 5' U3 | 0.539 |
| 31 | C368A | 5' U3 | 0.111 |
| 32 | C368T | 5' U3 | 0.289 |
| 33 | T371C | 5' U3 | 0.456 |
| 34 | C372T | 5' U3 | 0.218 |
| 35 | G375A | 5' U3 | 0.127 |
| 36 | G382T | 5' U3 | 0.217 |
| 37 | G384A | 5' U3 | 0.150 |
| 38 | C386T | 5' U3 | 0.263 |
| 39 | T388C | 5' U3 | 0.413 |
| 40 | G389A | 5' U3 | 0.227 |
| 41 | A396G | 5' U3 | 0.118 |
| 42 | C397T | 5' U3 | 0.162 |
| 43 | T398A | 5' U3 | 0.256 |
| 44 | T405C | 5' U3 | 0.139 |
| 45 | T405G | 5' U3 | 0.533 |
| 46 | G406A | 5' U3 | 0.290 |
| 47 | G409T | 5' U3 | 0.273 |
| 48 | G421A | 5' U3 | 0.993 |
| 49 | T448A | 5' U3 | 0.787 |
| 50 | A451G | 5' U3 | 0.689 |
| 51 | T461A | 5' R | 0.737 |
| 52 | T463C | 5' R | 0.809 |
| 53 | G474T | 5' R | 0.399 |
| 54 | A488T | 5' R | 0.726 |
| 55 | C492A | 5' R | 0.568 |
| 56 | G496T | 5' R | 0.894 |
| 57 | G497T | 5' R | 0.778 |
| 58 | A513T | 5' R | 0.505 |
| 59 | T529C | 5' R | 0.742 |
| 60 | G533A | 5' R | 0.919 |
| 61 | G537A | 5' R | 0.770 |
| 62 | G542T | 5' R | 0.985 |
| 63 | A550C | 5' R | 0.930 |
| 64 | C565T | 5' U5/leader | 0.728 |
| 65 | G566A | 5' U5/leader | 0.706 |
| 66 | C598A | 5' U5/leader | 0.120 |
| 67 | G662A | 5' U5/leader | 0.211 |
| 68 | G734A | 5' U5/leader | 0.104 |
| 69 | C735A | 5' U5/leader | 0.144 |
| 70 | T742C | 5' U5/leader | 0.0615 |
| 71 | T745A | 5' U5/leader | 0.0284 |
| 72 | G746A | 5' U5/leader | 0.200 |
| 73 | A747T | 5' U5/leader | 0.0221 |
| 74 | A750T | 5' U5/leader | 0.0610 |
| 75 | C754T | 5' U5/leader | 0.0530 |
| 76 | T760C | 5' U5/leader | 0.0825 |
| 77 | T761A | 5' U5/leader | 0.104 |
| 78 | C766T | 5' U5/leader | 0.0324 |
| 79 | A768G | 5' U5/leader | 0.0460 |
| 80 | A778T | 5' U5/leader | 0.0207 |
| 81 | A780G | 5' U5/leader | 0.215 |
| 82 | A780T | 5' U5/leader | 0.0265 |
| 83 | G783A | 5' U5/leader | 0.329 |
| 84 | G785A | 5' U5/leader | 0.129 |
| 85 | G785T | 5' U5/leader | 0.139 |
| 86 | G9412T | 3' U3 | 0.511 |
| 87 | G9414A | 3' U3 | 0.790 |
| 88 | T9416A | 3' U3 | 1.46 |
| 89 | T9416G | 3' U3 | 0.225 |
| 90 | G9418C | 3' U3 | 0.621 |
| 91 | T9420A | 3' U3 | 0.894 |
| 92 | A9423G | 3' U3 | 0.827 |
| 93 | A9424C | 3' U3 | 0.825 |
| 94 | A9428G | 3' U3 | 0.379 |
| 95 | C9429T | 3' U3 | 0.492 |
| 96 | C9434A | 3' U3 | 0.573 |
| 97 | G9435C | 3' U3 | 0.295 |
| 98 | G9435T | 3' U3 | 0.551 |
| 99 | G9441A | 3' U3 | 0.519 |
| 100 | C9443A | 3' U3 | 0.933 |
| 101 | C9443T | 3' U3 | 0.422 |
| 102 | T9444A | 3' U3 | 0.611 |
| 103 | T9444C | 3' U3 | 0.559 |
| 104 | T9444G | 3' U3 | 0.181 |
| 105 | T9445C | 3' U3 | 0.764 |
| 106 | T9446A | 3' U3 | 0.465 |
| 107 | T9446G | 3' U3 | 0.199 |
| 108 | C9448A | 3' U3 | 0.398 |
| 109 | G9451T | 3' U3 | 0.539 |
| 110 | G9452T | 3' U3 | 0.0951 |
| 111 | A9453G | 3' U3 | 0.909 |
| 112 | G9455A | 3' U3 | 0.615 |
| 113 | G9457C | 3' U3 | 0.464 |
| 114 | C9461G | 3' U3 | 0.163 |
| 115 | C9461T | 3' U3 | 0.919 |
| 116 | C9467T | 3' U3 | 0.839 |
| 117 | G9468A | 3' U3 | 0.574 |
| 118 | G9470T | 3' U3 | 0.444 |
| 119 | T9473C | 3' U3 | 0.826 |
| 120 | G9482T | 3' U3 | 0.389 |
| 121 | C9487T | 3' U3 | 1.06 |
| 122 | C9488T | 3' U3 | 0.873 |
| 123 | A9492C | 3' U3 | 0.575 |
| 124 | A9494G | 3' U3 | 0.884 |
| 125 | A9494T | 3' U3 | 0.449 |
| 126 | G9499T | 3' U3 | 0.317 |
| 127 | C9500A | 3' U3 | 0.966 |
| 128 | A9506G | 3' U3 | 0.0643 |
| 129 | C9508T | 3' U3 | 0.795 |
| 130 | C9514A | 3' U3 | 0.180 |
| 131 | T9518A | 3' U3 | 0.769 |
| 132 | G9520C | 3' U3 | 0.355 |
| 133 | C9527T | 3' U3 | 0.764 |
| 134 | T9534A | 3' R | 0.216 |
| 135 | T9534C | 3' R | 0.569 |
| 136 | C9537T | 3' R | 0.228 |
| 137 | A9543G | 3' R | 0.124 |
| 138 | A9550T | 3' R | 0.0727 |
| 139 | T9553A | 3' R | 0.662 |
| 140 | A9555T | 3' R | 0.0522 |
| 141 | A9563T | 3' R | 0.299 |
| 142 | T9568C | 3' R | 0.212 |
| 143 | T9570A | 3' R | 0.0442 |
| 144 | A9575T | 3' R | 0.263 |
| 145 | A9584T | 3' R | 0.128 |
| 146 | C9589A | 3' R | 0.0708 |
| 147 | G9591T | 3' R | 0.211 |
| 148 | C9592A | 3' R | 0.0419 |
| 149 | A9605G | 3' R | 0.140 |
| 150 | A9605T | 3' R | 0.241 |

The last 18 entries again:

base,region,replication capacity index
C9527T,3' U3,0.764
T9534A,3' R,0.216
T9534C,3' R,0.569
C9537T,3' R,0.228
A9543G,3' R,0.124
A9550T,3' R,0.0727
T9553A,3' R,0.662
A9555T,3' R,0.0522
A9563T,3' R,0.299
T9568C,3' R,0.212
T9570A,3' R,0.0442
A9575T,3' R,0.263
A9584T,3' R,0.128
C9589A,3' R,0.0708
G9591T,3' R,0.211
C9592A,3' R,0.0419
A9605G,3' R,0.140
A9605T,3' R,0.241

Clones carried about five changes per kilobase, which can drag down the index of neutral changes.
Nucleotide positions follow pNL4-3.